From US7101692B2 (priority 1999, dated 2006) come the findings set out here.

This test has as its system sorting reaction (sortase cleavage of Seb-Spa490-524 P2 precursor at the LPXTG motif). The note with it: Compound 5 mM added 15 seconds after beginning of pulse; ratio of Seb-Spa490-524 P2 precursor to mature anchored species; average of three ± SD.
`NC(=O)CI` [iodoacetamide]: the “[P2]/[M]” value is on record as 0.12 ± 0.01.

On to p-hydroxymercuribenzoic acid, for which the “[P2]/[M]” value is on record as 1.51 ± 0.04.

On to `O=C(O)CI` [iodoacetic acid], for which the “[P2]/[M]” value is 0.13 ± 0.02.

Take `O[C@H](CS)[C@H](O)CS` (racemic) [dithiothreitol (DTT), dithiothreitol]: the “[P2]/[M]” value is recorded as 0.13 ± 0.03.
